Results of unrelated studies side by side (data: NIAID ChemDB).

Common to all: growth or infection tests; agent: Mycobacterium tuberculosis

Blank or dashed fields: not listed here.

compound | endpoint | mutations | strain | dose | read by | value
CCOC(=O)NC(=S)[S][Sb]([S]C(=S)NC(=O)OCC)[S]C(=S)Nc1ccc(S(=O)(=O)Nc2ccc(N=Nc3ccccc3)cc2)cc1 | MIC bound | - | H37Rv | - | BACTEC | ≤128 µg/mL
COc1cccc(-c2cc(C(F)(F)F)nc3c(C(F)(F)F)cccc23)c1 | MIC | - | - | - | - | >128 µM
Cn1c(=O)c2c3c(cnc2n(C)c1=O)C(=O)C1=C(C3=O)C2CCC1C2 | EC99 | pSMT1 luciferase reporter plasmid | H37Rv | - | luminescence | 10.43 µg/mL
NCC(=O)N[C@H](CO)C(=O)O | inhibition | - | H37Rv | 12.8 µg/mL | BACTEC | 15%
CCCCCC(CC)OC(=O)c1cnc(Cl)cn1 | MIC | - | ATCC 27294 | - | - | 0.5 µg/mL
Cc1cc(C)c2c(c1N)C(=O)CCO2 | MIC bound | - | H37Rv | - | BACTEC | >12.5 µg/mL
CC(C)C[C@@H]1NC(=O)[C@H](Cc2c[nH]c3ccccc23)NC(=O)[C@@H](CCCN)NC(=O)[C@H](CC(N)=O)NC(=O)[C@H](C(C)C)NC(=O)[C@@H](CC(C)C)NC1=O | MIC90 | - | H37Rv | - | turbidity | 2.97 µM
O=c1cc(CO)oc2c3c(cc(O)c12)OCC(COC1OC(CO)C(O)C(O)C1O)=CC3 | inhibition | - | H37Rv | 12.5 µg/mL | BACTEC | 4%
CC(C)C[C@@H]1NC(=O)[C@H](Cc2c[nH]c3ccccc23)NC(=O)[C@@H](CCCCN)NC(=O)[C@H](CC(N)=O)NC(=O)[C@H](C(C)C)NC(=O)[C@@H](CC(C)C)NC1=O | MIC90 | - | HN353 | - | turbidity | 0.99 µM
C1CCNCC1.S=C(S)N1CCCCC1 | MIC | - | PZA-R | - | - | 0.8 µg/mL
Cc1ccc(CS(=O)(=O)c2ncn[nH]2)cc1 | MIC | - | My 331/88 | - | - | >500 µM
CO[C@H]1/C=C/O[C@@]2(C)Oc3c(C)c(O)c4c(O)c(c5c(c4c3C2=O)Nc2c(O)cc(N3CCN(CC=C(C)C)CC3)cc2O5)NC(=O)/C(C)=C\C=C\[C@H](C)[C@H](O)[C@@H](C)[C@@H](O)[C@@H](C)[C@H](OC(C)=O)[C@@H]1C | MIC | - | H37Rv | - | - | 0.035 µg/mL
CC(C)Cc1cnc(C(=O)/C=C/c2ccccc2O)cn1 | EC50 | - | H37Rv | - | - | >12.5 µg/mL
Cc1ccccc1C(C#N)/C(=N/NC(=O)C(=O)NN)C(=O)Nc1cccc(C(F)(F)F)c1 | inhibition | - | H37Rv | 12.5 µg/mL | BACTEC | 5%
CC(C)Cn1c(=O)c2c3c(cnc2n(CC(C)C)c1=O)C(=O)C1=C(C3=O)C2CCC1C2 | EC99 | pSMT1 luciferase reporter plasmid | H37Rv | - | luminescence | 11.01 µg/mL
COC1/C=C\C=C(/C)C(=O)Nc2cc3nc4ccc(Br)cc4oc-3c(c2=O)CC(C)CC(OC)C(O)C(C)/C=C(\C)C1OC(N)=O | MIC | - | ETA-R | - | - | 12.5 µg/mL
FC(F)(F)c1ccc(CSc2ncn[nH]2)cc1 | MIC | - | My 331/88 | - | - | 250 µM
CC(C)(C)OC(=O)NC1CC2(C=C(Cl)C(=O)C(Cl)=C2)OC1=O | MIC bound | - | H37Rv | - | BACTEC | >12.5 µg/mL
O=C(NNC1OC[C@H](O)[C@@H](O)[C@@H]1O)c1ccncc1 | MIC90 | - | H37Rv (ATCC 27294) | - | - | >100 µg/mL
CC[C@@H](CO)NCCN[C@@H](CC)CO | MIC | - | H37Rv (ATCC 27294) | - | - | 3.12 µg/mL
FC(F)(F)c1cc(N2CCOCC2)c2cccc(C(F)(F)F)c2n1 | MIC | - | - | - | - | >128 µM
NC[C@@H](O)[C@@H](O)[C@H](O)[C@H](O)CN | MIC | - | H37Rv (ATCC 27294) | - | - | >100 µg/mL
Cn1cn[nH]c1=S | MIC | - | My 331/88 | - | - | >1000 µM
CCCCCn1c(=O)c2c3c(cnc2n(CCCCC)c1=O)C(=O)C1=C(C3=O)C2CCC1CC2 | EC99 | pSMT1 luciferase reporter plasmid | H37Rv | - | luminescence | 13.37 µg/mL
CCOC(=O)c1cc(CNc2cccc(OC(F)(F)F)c2)on1 | MIC | - | H37Rv | - | resazurin | 2.4 µM
O[C@@H]([C@H](O)[C@H](O)CN=Cc1ccccc1Cl)[C@H](O)CN=Cc1ccccc1Cl | MIC | - | H37Rv (ATCC 27294) | - | - | >100 µg/mL
CCCCn1c(=O)c2c3c(cnc2n(CCCC)c1=O)C(=O)C1=C(C3=O)C2CCC1C2 | EC90 | pSMT1 luciferase reporter plasmid | H37Rv | - | luminescence | 4.59 µg/mL
CCN(CC)c1ccc2nc3c4ccccc4c(=NC(=O)c4ccccc4-c4c5ccc(N(CC)CC)cc5[o+]c5cc(N(CC)CC)ccc45)cc-3oc2c1.[Cl-] | MIC | - | INH-r | - | - | 1.6 µg/mL
CCCCCCCCCCCCc1ccc(NC(=O)C2=CCN(C)[C@@H]([C@H](O[C@@H]3O[C@H](CN)[C@@H](O)[C@H]3O)[C@H]3O[C@@H](n4ccc(=O)[nH]c4=O)[C@H](O)[C@@H]3O)C(=O)N2C)cc1 | MIC | - | H37Rv | - | - | 3.13 µg/mL
CCOC(=O)c1cc(CNc2cc(OC)cc(OC)c2)on1 | MIC | - | H37Rv | - | low oxygen | 28.2 µM
O=C(NNC1O[C@@H](CO)[C@@H](O)[C@H](O)[C@@H]1O)c1ccncc1 | MIC90 | - | H37Rv (ATCC 27294) | - | - | 1.25 µg/mL
COc1ccccc1N(N=O)C(C)=O | MIC bound | - | H37Rv | - | BACTEC | >12.5 µg/mL
CN(C)c1ccc(-c2cc(C(F)(F)F)nc3c(C(F)(F)F)cccc23)cc1 | MIC | - | - | - | - | >128 µM
O=[N+]([O-])c1ccccc1C=NC[C@@H](O)[C@@H](O)[C@H](O)[C@H](O)CN=Cc1ccccc1[N+](=O)[O-] | MIC | - | H37Rv (ATCC 27294) | - | - | 12.5 µg/mL
CC(C)C[C@@H]1NC(=O)[C@H](Cc2c[nH]c3ccccc23)NC(=O)[C@@H](CCCN=C(N)N)NC(=O)[C@H](CC(N)=O)NC(=O)[C@H](C(C)C)NC(=O)[C@@H](CC(C)C)NC1=O | EC50 | - | H37Ra | - | turbidity | 0.13 µM
CO[C@H]1/C=C/O[C@@]2(C)Oc3c(C)c(O)c4c(O)c(c5c(c4c3C2=O)Nc2c(O)cc(N3CCN(CC4CC4)CC3)cc2O5)NC(=O)/C(C)=C\C=C\[C@H](C)[C@H](O)[C@@H](C)[C@@H](O)[C@@H](C)[C@H](OC(C)=O)[C@@H]1C | MIC | - | H37Rv | - | - | 0.017 µg/mL
CCCCCCCC(OC(=O)c1cnc(Cl)cn1)C(C)(C)C | MIC | - | ATCC35801 | - | - | 8 µg/mL
CCOC(=O)c1cc(-c2cc(C(F)(F)F)cc(C(F)(F)F)c2)on1 | MIC | - | H37Rv | - | low oxygen | 8.1 µM
C[C@@H]1OC(NNC(=O)c2ccncc2)[C@@H](O)[C@@H](O)[C@@H]1O | MIC90 | - | H37Rv (ATCC 27294) | - | - | 0.62 µg/mL
O/C(=C\c1nc2ccccc2nc1/C=C(\O)c1ccc(Cl)cc1)c1ccc(Cl)cc1 | EC50 | - | - | - | - | >6.25 µg/mL
C=C1C(=O)OC2CC(C)C(C(O)CC(C)O)=CCC12 | MIC bound | - | H37Rv | - | BACTEC | >12.8 µg/mL
O/C(=C\c1nc2ccccc2nc1/C=C(\O)c1ccccc1)c1ccccc1 | inhibition | - | - | 6.25 µg/mL | - | 0%
CCCCCn1c(=O)c2c3c(cnc2n(CCCCC)c1=O)C(=O)C1=C(C3=O)C2CCC1C2 | EC99 | pSMT1 luciferase reporter plasmid | H37Rv | - | luminescence | 9.54 µg/mL
FC(F)(F)c1cc(NCc2ccccn2)c2cccc(C(F)(F)F)c2n1 | MIC | - | - | - | - | 30 µM
CC1=C(C(=O)O)N2C(=O)C(NC(=O)C(c3ccc(O)cc3)N3CSC(=S)N(C(C)C)C3)C2SC1 | MIC bound | - | H37Rv | - | BACTEC | >12.5 µg/mL
CCCCN1CCN(c2cc(O)c3c(c2)Oc2c4c(O)c5c(O)c(C)c6c(c5c2N3)C(=O)[C@@](C)(O/C=C/[C@H](OC)[C@@H](C)[C@@H](OC(C)=O)[C@H](C)[C@H](O)[C@H](C)[C@@H](O)[C@@H](C)/C=C/C=C(/C)C(=O)N4)O6)CC1 | MIC | - | H37Rv | - | - | 0.035 µg/mL
CC(C)COC(=O)c1cnccn1 | MIC | - | ATCC 35828 | - | - | 4 µg/mL
O=C(NNC1O[C@@H](CO)[C@@H](O[C@@H]2O[C@H](CO)[C@H](O)[C@H](O)[C@H]2O)[C@H](O)[C@@H]1O)c1ccncc1 | MIC90 | - | H37Rv (ATCC 27294) | - | - | 2.5 µg/mL
CCCn1c(=O)c2c3c(cnc2n(CCC)c1=O)C(=O)C1=C(C3=O)C2CCC1C2 | EC90 | pSMT1 luciferase reporter plasmid | H37Rv | - | luminescence | 4.28 µg/mL
c1cc(CSc2ncn[nH]2)cc(-c2nn[nH]n2)c1 | MIC | - | My 331/88 | - | - | >500 µM
CCCCCCCn1c(=O)c2c3c(cnc2n(CCCCCCC)c1=O)C(=O)C1=C(C3=O)C2CCC1C2 | EC99 | pSMT1 luciferase reporter plasmid | H37Rv | - | luminescence | 5.57 µg/mL
S=c1nc(-c2ccncc2)[nH][nH]1 | MIC bound | - | H37Rv | - | BACTEC | >12.5 µg/mL
COc1cc(/C=C/C(=O)c2cnccn2)ccc1O | EC50 | - | H37Rv | - | - | >12.5 µg/mL
O=[N+]([O-])c1ccc2nc(/C=C(\O)c3ccccc3)c(/C=C(\O)c3ccccc3)nc2c1 | EC50 | - | - | - | - | >6.25 µg/mL
COc1ccc([C@](O)(CCN(C)C)[C@@H](c2cc3cc(C#N)ccc3nc2OC)c2cccc(OC)c2OC)cn1 | MIC90 | - | H37Rv | - | luminescence | 2.1 µg/mL
CO[C@H]1/C=C/O[C@@]2(C)Oc3c(C)c(O)c4c(O)c(c5c(c4c3C2=O)Nc2c(O)cc(N3CCN(C(C)(C)C)CC3)cc2O5)NC(=O)/C(C)=C\C=C\[C@H](C)[C@H](O)[C@@H](C)[C@@H](O)[C@@H](C)[C@H](OC(C)=O)[C@@H]1C | MIC | - | H37Rv | - | - | 0.008 µg/mL
c1ccc(CSc2ncn[nH]2)cc1 | MIC | - | My 331/88 | - | - | 1000 µM
CCCCc1cnc(C(=O)/C=C/c2ccc(O)cc2)cn1 | EC50 | - | H37Rv | - | - | <12.5 µg/mL
C1=Nc2ccccc2N=Cc2ccccc2NCCNc2ccccc21 | inhibition | - | H37Rv | 6.25 µg/mL | resazurin | 24%
CC(C)Cc1cnc(C(=O)/C=C/c2ccc(N(C)C)cc2)cn1 | EC50 | - | H37Rv | - | - | >12.5 µg/mL
O=C1N=NC(=O)C2C1NC(=S)N2c1ccccc1 | inhibition | - | H37Rv | 12.5 µg/mL | BACTEC | 0%
CCOC(=O)c1cc(-c2ccc3cc(OC)ccc3c2)on1 | MIC | - | H37Rv | - | resazurin | 0.9 µM
CCCc1cnc(C(=O)/C=C/c2ccc(N(C)C)cc2)cn1 | EC50 | - | H37Rv | - | - | >12.5 µg/mL
CCCCCCn1c(=O)c2c3c(cnc2n(CCCCCC)c1=O)C(=O)C1=C(C3=O)C2CCC1C2 | EC90 | pSMT1 luciferase reporter plasmid | H37Rv | - | luminescence | 5.43 µg/mL
CCOC(=O)C1=NN(c2ccccc2)C(=O)C1N=Nc1ccc(S(=O)(=O)Nc2onc(C)c2C)cc1 | MIC bound | - | H37Rv | - | BACTEC | >12.8 µg/mL
CC(C)C[C@@H]1NC(=O)[C@H](Cc2c[nH]c3ccccc23)NC(=O)[C@H](CCCCN)NC(=O)[C@H](CC(N)=O)NC(=O)[C@H](C(C)C)NC(=O)[C@@H](CC(C)C)NC1=O | EC50 | - | H37Rv | - | turbidity | >30 µM
Clc1ccc(C2NN=C3c4ccccc4OCC32)cc1 | inhibition | - | H37Rv | 12.5 µg/mL | BACTEC | 53%
CO[C@H]1/C=C/O[C@@]2(C)Oc3c(C)c(O)c4c(O)c(c5c(c4c3C2=O)Nc2c(O)cc(N3CCN(CC(C)C)CC3)cc2O5)NC(=O)/C(C)=C\C=C\[C@H](C)[C@H](O)[C@@H](C)[C@@H](O)[C@@H](C)[C@H](OC(C)=O)[C@@H]1C | MIC | - | H37Rv | - | - | 0.017 µg/mL
CC1(O)Nc2nc3nc[nH]c3c(=O)n2C1O | inhibition | - | H37Rv | 6.25 µg/mL | resazurin | 12%
CO[C@H]1/C=C/O[C@@]2(C)Oc3c(C)c(O)c4c(O)c(c5c(c4c3C2=O)NC2(CCN(CC(C)C)CC2)N=5)=NC(=O)/C(C)=C\C=C\[C@H](C)[C@H](O)[C@@H](C)[C@@H](O)[C@@H](C)[C@H](OC(C)=O)[C@@H]1C | MIC40 | - | 32 clinical isolates | - | - | 1.56 µg/mL
Nc1nc2c(ccc3ccccc32)[nH]1 | MIC bound | - | H37Rv | - | resazurin | >6.25 µg/mL
COc1cccc([C@H](c2cc3cc(C#N)ccc3nc2OC)[C@@](O)(CCN(C)C)c2ccc(C)nc2)c1OC | MIC90 | - | H37Rv | - | fluorescence | >5 µg/mL
NNC(=O)CNC(=O)c1ccc(Cl)cc1Cl | inhibition | - | H37Rv | 12.5 µg/mL | BACTEC | 10%
CCOC(=O)c1cc(CNc2cc(F)ccc2F)on1 | MIC | - | H37Rv | - | resazurin | 7.3 µM

A second listing of 5 rows from above:

compound | endpoint | mutations | strain | dose | read by | value
C1=Nc2ccccc2N=Cc2ccccc2NCCNc2ccccc21 | inhibition | - | H37Rv | 6.25 µg/mL | resazurin | 24%
Cn1c(=O)c2c3c(cnc2n(C)c1=O)C(=O)C1=C(C3=O)C2CCC1C2 | EC99 | pSMT1 luciferase reporter plasmid | H37Rv | - | luminescence | 10.43 µg/mL
Cc1ccc(CS(=O)(=O)c2ncn[nH]2)cc1 | MIC | - | My 331/88 | - | - | >500 µM
O/C(=C\c1nc2ccccc2nc1/C=C(\O)c1ccc(Cl)cc1)c1ccc(Cl)cc1 | EC50 | - | - | - | - | >6.25 µg/mL
COc1ccc([C@](O)(CCN(C)C)[C@@H](c2cc3cc(C#N)ccc3nc2OC)c2cccc(OC)c2OC)cn1 | MIC90 | - | H37Rv | - | luminescence | 2.1 µg/mL

ECn is the concentration giving n% inhibition of infection, replication or growth. Percent inhibition refers to the dose given; in toxicity tests it is the harm to the cells. MIC50, MIC90 and the like: level of inhibition, or share of isolates inhibited. MIC bound: limit read from a one-dose screen. Rows are shuffled and stem from different studies.